## Fitness effects across NS2B and the NS3 protease domain of Zika virus

Data from the supplement of Ni et al. 2025, doi:10.1038/s41467-025-63602-z.

The scanned region of Zika virus MR766 is shown below (positions 1-308): NS2B is 2-131, NS3 begins at position 132.
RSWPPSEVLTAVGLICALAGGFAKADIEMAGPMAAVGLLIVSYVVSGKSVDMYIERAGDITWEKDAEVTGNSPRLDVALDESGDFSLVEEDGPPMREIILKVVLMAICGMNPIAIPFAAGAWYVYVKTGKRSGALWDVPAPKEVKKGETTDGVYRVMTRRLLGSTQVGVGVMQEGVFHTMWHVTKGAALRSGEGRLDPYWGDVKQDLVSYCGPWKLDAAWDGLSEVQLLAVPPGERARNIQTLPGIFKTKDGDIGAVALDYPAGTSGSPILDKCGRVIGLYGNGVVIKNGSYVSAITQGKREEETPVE

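Mutant virus pools were grown in human Huh-7.5 cells. Deep sequencing gave the change in frequency of each mutant relative to wild type, averaged over three replicate libraries (two for positions 207-308).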

The number is log2 of the effect relative to wild type; negative values mean reduced growth, higher values better tolerance.
Each entry names the wild-type residue, its position and the residue put in its place.
Position 1 still belongs to NS2A. In the paper, -1 or higher counts as tolerated.
Stop codons (*) centre on -7 and mark the level of dead virus.
Values above 0 are not proof of better growth: six high scorers were tested one by one, five grew less well than wild type and one about as well.
Positions 1-103, 104-206 and 207-308 were made and measured as separate libraries.

{"mutation": "V167Q", "log2 effect": -5.83}
{"mutation": "D217W", "log2 effect": -2.19}
{"mutation": "D65M", "log2 effect": -6.02}
{"mutation": "W136I", "log2 effect": -6.67}
{"mutation": "P93I", "log2 effect": -1.11}
{"mutation": "E148G", "log2 effect": -2.10}
{"mutation": "G201V", "log2 effect": -7.02}
{"mutation": "P5H", "log2 effect": -3.32}
{"mutation": "R195S", "log2 effect": -6.39}
{"mutation": "A19E", "log2 effect": -6.81}
{"mutation": "Y281L", "log2 effect": -6.51}
{"mutation": "E143R", "log2 effect": -2.66}
{"mutation": "M52T", "log2 effect": -4.29}
{"mutation": "I115P", "log2 effect": -6.65}
{"mutation": "V12I", "log2 effect": -2.51}
{"mutation": "A35H", "log2 effect": -5.73}
{"mutation": "L100Y", "log2 effect": -1.07}
{"mutation": "R301L", "log2 effect": -4.04}
{"mutation": "E225V", "log2 effect": -4.22}
{"mutation": "T69L", "log2 effect": -7.18}
{"mutation": "L75G", "log2 effect": -7.65}
{"mutation": "A121S", "log2 effect": -1.34}
{"mutation": "D51N", "log2 effect": -4.46}
{"mutation": "S2T", "log2 effect": -6.86}
{"mutation": "S294A", "log2 effect": -5.43}
{"mutation": "M105R", "log2 effect": -7.33}
{"mutation": "A187M", "log2 effect": -5.04}
{"mutation": "G163P", "log2 effect": -6.65}
{"mutation": "W181E", "log2 effect": -4.64}
{"mutation": "G275Q", "log2 effect": -3.54}
{"mutation": "V102*", "log2 effect": -8.17}
{"mutation": "D84N", "log2 effect": -5.42}
{"mutation": "H182F", "log2 effect": -3.82}
{"mutation": "T179G", "log2 effect": -6.66}
{"mutation": "Y43G", "log2 effect": -5.88}
{"mutation": "S191R", "log2 effect": -4.96}
{"mutation": "F177N", "log2 effect": -5.12}
{"mutation": "L259A", "log2 effect": -6.09}
{"mutation": "D65E", "log2 effect": -3.07}
{"mutation": "T297H", "log2 effect": -4.04}
{"mutation": "W136H", "log2 effect": -6.23}
{"mutation": "Q241M", "log2 effect": -4.82}
{"mutation": "L87C", "log2 effect": -6.06}
{"mutation": "R190S", "log2 effect": -3.12}
{"mutation": "N283K", "log2 effect": -5.91}
{"mutation": "V156G", "log2 effect": -6.92}
{"mutation": "D272P", "log2 effect": -3.92}

4 of these entries, quoted again:

With A19E the assay gave -6.81.
With Y43G the assay gave -5.88.
With L75G the assay gave -7.65.
With D65E the assay gave -3.07.